Anti-infective test results gathered from many reports (values: NIAID ChemDB through PubChem).

Shared fields: tests on isolated targets; species: HIV-1; target: Reverse transcriptase; endpoint: inhibition

Inhibition is in % at the dose shown (toxicity tests: loss of growth or viability). Blank or dashed fields: not listed here. Rows are shuffled and stem from different studies.

CCc1c(Sc2ccccn2)n(COCc2ccccc2)c(=O)[nH]c1=O ; changes: RT-Y181C ; tested at: 50 µM ; result: 30%
COc1cc(-c2cc(O)c(OC)c(OC)c2)ccc1O ; read by: RT activity / radiometric ; tested at: 200 µg/mL ; result: -2.53%
O=C(O)/C=C/c1ccc(O)c(O)c1 ; strain or isolate: MC99 ; read by: RT activity / fluorescence ; tested at: 200 µg/mL ; result: 70.4%
O=C(O[C@@H]1OC2CC(=O)c3cc(O)c(O)c(O)c3-c3c(cc(O)c(O)c3O)C(=O)OC2C2OC(=O)c3cc(O)c(O)c(O)c3-c3c(cc(O)c(O)c3O)C(=O)OC21)c1cc(O)c(O)c(O)c1 ; read by: nucleotide incorporation ; tested at: 20 µg/mL ; result: 3%
O=c1c2cc(O)ccc2oc2cc(O)cc(O)c12 ; read by: RT activity / radiometric ; tested at: 200 µg/mL ; result: -27.67%
COc1c(O)ccc2c(=O)c3c(O)cccc3oc12 ; read by: RT activity / radiometric ; tested at: 200 µg/mL ; result: 18.31%
O=C1CSC(c2c(Cl)cccc2Cl)N1Cc1ccco1 ; read by: ELISA ; tested at: 10 µg/mL ; result: 62%
O=C(OCC(OC(=O)c1ccc(O)cc1)C(OC(=O)c1ccc(O)cc1)C(COC(=O)c1ccc(O)cc1)OC(=O)c1ccc(O)cc1)c1ccc(O)cc1 ; read by: nucleotide incorporation ; tested at: 50 µM ; result: >99%
C[C@@H]1[C@H](O)[C@@H](C)/C=C/C=C/C=C/C=C/C=C/C=C/C=C/[C@H](O[C@@H]2O[C@H](C)[C@@H](O)[C@H](N)[C@@H]2O)CC2O[C@](O)(CC(O)C(O)CCC(O)CC(O)CC(O)CC(=O)O[C@H]1C)CC(O)C2C(=O)O.O=S(=O)(O)O ; read by: RT activity ; tested at: 1000 µg/mL ; result: 98.8%
Cc1cc(O)c2c(c1)C(=O)C(c1c(C)cc3c(c1O)C(=O)C=CC3=O)=CC2=O ; read by: RT activity ; tested at: 100 µg/mL ; result: 29%
CC(C)=CC[C@H]1C[C@@]2(C[C@H]3CCC(C)(C)C=C3C)C(=O)[C@](C(=O)c3ccccc3)(C(=O)C3=C2OC(C)(C)C=C3)C1(C)C ; read by: RT activity / radiometric ; tested at: 200 µg/mL ; result: 20.11%
O=c1c2cc(O)ccc2oc2cc(O)cc(O)c12 ; read by: RT activity / radiometric ; tested at: 200 µg/mL ; result: 80.28%
Cc1cc(O)c2c(c1)C(=O)C=CC2=O ; read by: RT activity ; tested at: 25 µg/mL ; result: 94%
O=C(O)CCCC[C@@H]1CCSS1 ; read by: RT activity ; tested at: 70 µg/mL ; result: 90%
C[C@@H]1CC[C@]2(C(=O)O)CC[C@]3(C)C(=CCC4[C@@]5(C)CC[C@H](O)C(C)(C)[C@@H]5CC[C@]43C)C2[C@H]1C ; strain or isolate: MC99 ; read by: RT activity / fluorescence ; tested at: 200 µg/mL ; result: 63.7%
CC(C)=CC[C@H]1C[C@@]2(C[C@H]3CCC(C)(C)C=C3C)C(=O)[C@](C(=O)c3ccccc3)(C(=O)C3=C2OC(C)(C)CC3)C1(C)C ; read by: RT activity / radiometric ; tested at: 200 µg/mL ; result: 12.1%
CN(c1ncccc1CO)C1CCN(C(=O)c2cc3cc(NS(C)(=O)=O)ccc3[nH]2)CC1 ; strain or isolate: IIIB ; changes: RT-Y181C ; read by: nucleotide incorporation ; tested at: 50 µM ; result: 15%
O=c1c(-c2ccccc2)coc2ccccc12 ; strain or isolate: LAV ; read by: RT activity ; tested at: 500 µg/mL ; result: 40.21%
CO[C@]12C=C3C(=O)c4c(O)c5c(c(CC=C(C)C)c4O[C@]34C(C1)C(C)(C)O[C@]4(CC=C(C)C)C2=O)OC(C)(C)C=C5 ; read by: nucleotide incorporation / radiometric ; tested at: 200 µg/mL ; result: 23.2%
C=C[C@@](C)(O)CC/C(C)=C/C(=O)O[C@H]1[C@@H]2C=CO[C@@H](OC3OC(CO)C(O)C(O)C3O)[C@@H]2[C@@]2(CO)O[C@@H]12 ; strain or isolate: MC99 ; read by: RT activity / fluorescence ; tested at: 200 µg/mL ; result: 3.5%
Cc1ccc2c(c1O)C(=O)C=CC2=O ; read by: RT activity ; tested at: 50 µg/mL ; result: 75%
CC/C=C\C/C=C\C/C=C\CCCCCCCC(=O)OC[C@H](CO[C@H]1O[C@H](CS(=O)(=O)O)[C@@H](O)[C@H](OC(=O)CCCCCCCCCCCCCCC)[C@H]1OC(=O)CCCCCCCCCCCCCCC)OC(=O)CCCCCCCCCCCCCCC ; read by: nucleotide incorporation / radiometric ; tested at: 10 µM ; result: 100%
CC(=O)c1ccc(C)cc1NC(C(N)=O)c1c(Cl)cccc1Cl ; tested at: 0.16 µg/mL ; result: 10.4%
O=C(O)/C=C/c1ccc(O)cc1 ; strain or isolate: MC99 ; read by: RT activity / fluorescence ; tested at: 200 µg/mL ; result: 3.7%
COc1cc(O)cc(OC)c1C(=O)c1cc(O)cc(O)c1 ; read by: RT activity / radiometric ; tested at: 200 µg/mL ; result: -28.93%
O=c1c2cc(O)c(O)cc2oc2cc(O)cc(O)c12 ; read by: RT activity / radiometric ; tested at: 200 µg/mL ; result: 100%
O=C(/C=C/c1ccc(O)c(O)c1)O[C@H]1[C@H](O)C[C@](O)(C(=O)O)C[C@H]1OC(=O)/C=C/c1ccc(O)c(O)c1 ; read by: RT activity / absorbance ; tested at: 100 µg/mL ; result: 44%
Nc1nc(=O)n([C@H]2C=C[C@@H](COP(=O)(O)OP(=O)(O)OP(=O)(O)O)O2)cc1F ; tested at: 2.2 µM ; result: 90%
CC(C)=CCc1c2c(c(O)c3c1O[C@@]14C(C[C@H]5CC1C(C)(C)O[C@]4(C/C=C(\C)C=O)C5=O)C3=O)C=CC(C)(C)O2 ; read by: nucleotide incorporation / radiometric ; tested at: 200 µg/mL ; result: 92.4%
C1=Cc2cccnc2N(C2CC2)c2ncccc21 ; changes: RT-Y181C ; read by: nucleotide incorporation ; tested at: 1 µM ; result: 53%
CC1Oc2cc(O)c3c(=O)c4ccc(O)c(O)c4oc3c2C1(C)C ; read by: RT activity / radiometric ; tested at: 200 µg/mL ; result: 85.11%
Oc1cc(O)c2c(c1)O[C@H](c1cc(O)c(O)c(O)c1)[C@H](O)C2 ; tested at: 1 µg/mL ; result: 0%
Cc1cc(O)c2c(c1Cl)C(=O)C=CC2=O ; read by: RT activity ; tested at: 100 µg/mL ; result: 95%
COc1ccc2[nH]c(=O)oc2c1 ; tested at: 800 µM ; result: 60.8%
O=C1CSC(c2cccnc2)N1Cc1ccco1 ; read by: ELISA ; tested at: 10 µg/mL ; result: 9.41%
O=C(O)c1cc(O)c(O)c(O)c1 ; tested at: 1 µg/mL ; result: 0%
O=C(O)CP(=O)(O)O ; read by: ELISA ; tested at: 2800 µM ; result: 42%
O=C(/C=C/c1ccc(O)c(O)c1)OC1[C@H](O)CC(O)(C(=O)O)C[C@H]1O ; read by: RT activity / absorbance ; tested at: 100 µg/mL ; result: 43.9%
O=C(/C=C/c1ccc(O)c(O)c1)O[C@@H]1CC(O)(C(=O)O)C[C@@H](OC(=O)/C=C/c2ccc(O)c(O)c2)C1O ; strain or isolate: LAI ; tested at: 5 µg/mL ; result: 18%
COc1cc2c3cc1Oc1c(OC)c(OC)cc4c1[C@@H](Cc1cccc(c1)Oc1ccc(c(O)c1)C[C@@H]3N(C)CC2)N(C)CC4 ; strain or isolate: LAV ; tested at: 500 µg/mL ; result: 40.29%
COc1cc(/C=C/C(=O)CC(=O)/C=C/c2ccc(O)c(OC)c2)ccc1O ; read by: ELISA ; tested at: 200 µM ; result: 29%
O=C1CSC(c2c(F)cccc2F)N1Cc1ccco1 ; read by: ELISA ; tested at: 10 µg/mL ; result: 39.75%
Cc1cc2c(c(O)c1-c1c(C)cc(O)c3c1C(=O)C=CC3=O)C(=O)C=CC2=O ; read by: RT activity ; tested at: 100 µg/mL ; result: 10%
C1CCNCCNCCCNCCNC1 ; tested at: 17.5 µM ; result: 100%
CC(C)=CCc1c2c(c(O)c3c1O[C@@]14C5C[C@@H](C(=O)[C@@]1(C/C=C(/C)C(=O)O)OC5(C)C)C1OC14C3=O)C=CC(C)(C)O2 ; read by: nucleotide incorporation / radiometric ; tested at: 200 µg/mL ; result: 86.7%
C=CC(C)(C)c1c2c(c(O)c3c(=O)c4ccc(O)c(O)c4oc13)C=CC(C)(C)O2 ; read by: RT activity / radiometric ; tested at: 200 µg/mL ; result: 93.03%
CC1(C)[C@@H](O[C@H]2O[C@H](C(=O)O)[C@@H](O)[C@H](O)[C@H]2O[C@@H]2O[C@H](C(=O)O)[C@@H](O)[C@H](O)[C@H]2O)CC[C@]2(C)[C@H]3C(=O)C=C4[C@@H]5C[C@@](C)(C(=O)O)CC[C@]5(C)CC[C@@]4(C)[C@]3(C)CC[C@@H]12 ; tested at: 250 µg/mL ; result: 96.9%
O=C1CSC(c2c(Cl)cccc2Cl)N1C1CCCCC1 ; read by: ELISA ; tested at: 10 µg/mL ; result: 10.08%
O=C(/C=C/c1ccc(O)c(O)c1)O[C@@H]1C[C@](OC(=O)/C=C/c2ccc(O)c(O)c2)(C(=O)O)C[C@@H](O)[C@H]1O ; strain or isolate: LAI ; tested at: 50 µg/mL ; result: 26%
CC(C)=CCc1c(O)c(CC=C(C)C)c2c(c1O)C(=O)C1=C[C@H]3CC4C(C)(C)O[C@](CC=C(C)C)(C3=O)[C@]14O2 ; read by: nucleotide incorporation / radiometric ; tested at: 200 µg/mL ; result: 52.1%
CC1=C(/C=C/C(C)=C/C=C/C(C)=C/C(=O)O)C(C)(C)CCC1 ; read by: ELISA ; tested at: 100 µM ; result: 30%
COc1c(O)cc2oc(-c3ccc(O)cc3)cc(=O)c2c1O ; read by: RT activity / absorbance ; tested at: 100 µg/mL ; result: 57.9%

Repeating the first 7 entries:

compound,strain or isolate,changes,read by,tested at,result
CCc1c(Sc2ccccn2)n(COCc2ccccc2)c(=O)[nH]c1=O,-,RT-Y181C,-,50 µM,30%
COc1cc(-c2cc(O)c(OC)c(OC)c2)ccc1O,-,-,RT activity / radiometric,200 µg/mL,-2.53%
O=C(O)/C=C/c1ccc(O)c(O)c1,MC99,-,RT activity / fluorescence,200 µg/mL,70.4%
O=C(O[C@@H]1OC2CC(=O)c3cc(O)c(O)c(O)c3-c3c(cc(O)c(O)c3O)C(=O)OC2C2OC(=O)c3cc(O)c(O)c(O)c3-c3c(cc(O)c(O)c3O)C(=O)OC21)c1cc(O)c(O)c(O)c1,-,-,nucleotide incorporation,20 µg/mL,3%
O=c1c2cc(O)ccc2oc2cc(O)cc(O)c12,-,-,RT activity / radiometric,200 µg/mL,-27.67%
COc1c(O)ccc2c(=O)c3c(O)cccc3oc12,-,-,RT activity / radiometric,200 µg/mL,18.31%
O=C1CSC(c2c(Cl)cccc2Cl)N1Cc1ccco1,-,-,ELISA,10 µg/mL,62%